Anti-infective test results gathered from many reports (values: NIAID ChemDB through PubChem).

Shared fields: tests in culture; agent: HIV-1; cell line: MT-4; read by: cytopathic effect / MTT; endpoint: EC50

ECn is the concentration giving n% inhibition of infection, replication or growth. Blank or dashed fields: not listed here. Two numbers with a dash give a range or band. Lines come from different laboratories, so protocols vary.

smiles | strain | changes | setting | result
S=c1[nH]c(-c2ccccc2)c(-c2ccccc2)n1Nc1cccc(Cl)c1 | SO561945 (RT K103N Y181C) | RT-K103N Y181C | - | >36.31 µM
CCC(C)[C@@H](C(=O)N[C@@H](Cc1ccccc1)[C@H](O)CN(CC(C)C)S(=O)(=O)c1ccc(/C=N/O)cc1)N1CC(=O)N(Cc2ccccn2)C1=O | - | - | - | 0.003 µM
Cc1[nH]c(=S)n(Nc2ccccc2)c1C | NL4-3 | - | - | >181 µM
Cc1ccc(CN2CCN([C@H](C(=O)N[C@@H](Cc3ccccc3)[C@H](O)CN(CC(C)C)S(=O)(=O)c3ccc(/C=N/O)cc3)C(C)(C)C)C2=O)cn1 | A17 (LPV-resistant) | PR-L10F V32I M46I I47V Q68E I84V | - | 0.002 µM
COc1cccc(Nn2cnc(C)c2-c2ccccc2)c1 | NL4-3 | - | - | >34.44 µM
O=C(O[C@@H]1O[C@@H]2COC(=O)c3cc(O)c(O)c(O)c3-c3c(cc(O)c(O)c3O)C(=O)O[C@H]2[C@H](OC(=O)c2cc(O)c(O)c(O)c2)[C@H]1OC(=O)c1cc(O)c(O)c(O)c1Oc1cc2c(c(O)c1O)Oc1cc(cc(O)c1O)C(=O)O[C@@H]1O[C@@H]3COC(=O)c4cc(O)c(O)c(O)c4-c4c(cc(O)c(O)c4O)C(=O)O[C@H]3[C@H](OC(=O)c3cc(O)c(O)c(O)c3)[C@H]1OC2=O)c1cc(O)c(O)c(O)c1 | IIIB | - | - | >100 µg/mL
CCC(C)[C@@H](C(=O)N[C@@H](Cc1ccccc1)[C@H](O)CN(CC(C)C)S(=O)(=O)c1ccc(/C=N/O)cc1)N1CCN(Cc2ccc(C)nc2)C1=O | - | - | 50% human serum | 0.025 µM
O=C1C(c2nn[nH]n2)=CC2Nc3ccccc3C2N1c1ccc([N+](=O)[O-])cc1 | LAI | - | - | 1–32 µM
CCc1c(Cc2cccc(Cc3nc(SC)nc(OC)c3CC)c2)nc(SC)nc1OC | NNRTI-resistant | RT-Y181C | - | >100 µM
CC(C)CN(C[C@@H](O)[C@H](Cc1ccccc1)NC(=O)O[C@H]1CO[C@H]2OCC[C@H]21)S(=O)(=O)c1ccc(-c2csc(NCCCN(C)C)n2)cc1 | LAI | - | - | 0.032 µM
N#Cc1cc2[nH]c3ccccc3c2n(-c2ccc([N+](=O)[O-])cc2)c1=O | J | RT-I31L L100I K103N E138G Y181C L214F | - | 1.59 µM
O=C[C@H](OC(=O)c1cc(O)c(O)c(O)c1)[C@@H](OC(=O)c1cc(O)c(O)c(O)c1)[C@@H]1OC(=O)c2cc(O)c(O)c(O)c2-c2c(cc(Oc3c(C(=O)O[C@@H]4O[C@@H]5COC(=O)c6cc(O)c(O)c(O)c6-c6c(cc(O)c(O)c6O)C(=O)O[C@H]5[C@H](OC(=O)c5cc(O)c(O)c(O)c5)[C@H]4OC(=O)c4cc(O)c(O)c(O)c4)cc(O)c(O)c3O)c(O)c2O)C(=O)OC[C@H]1O | IIIB | - | - | >50 µg/mL
CN1c2ccccc2C2C1C=C(C#N)C(=O)N2c1ccc(-c2ccoc2)cc1 | LAI | - | - | >32 µM
Cc1[nH]c(=S)n(Nc2ccccc2Cl)c1-c1ccccc1 | IIIB | - | - | >162 µM
CC(C)CN(C[C@@H](O)[C@H](Cc1ccccc1)NC(=O)O[C@H]1CO[C@H]2OCC[C@H]21)S(=O)(=O)c1ccc(-c2cn3ccsc3n2)cc1 | LAI | - | - | 0.025 µM
CCC(C)[C@@H](C(=O)N[C@@H](Cc1ccccc1)[C@H](O)CN(CC1CCCC1)S(=O)(=O)c1ccc(/C=N/O)cc1)N1CCN(Cc2cnccc2C)C1=O | - | - | - | 0.001 µM
CCOC(=O)Cn1nccc1-c1ccc(S(=O)(=O)N(CC(C)C)C[C@@H](O)[C@H](Cc2ccccc2)NC(=O)COc2c(C)cccc2C)cc1 | LAI | - | - | 1.995 µM
Cc1ncn(Nc2cccc(Cl)c2)c1-c1ccccc1 | IIIB | - | - | 1.59 µM
CCc1c(Cc2cccc(Cc3nc(N(C)C)[nH]c(=O)c3CC)c2)nc(N(C)C)[nH]c1=O | - | - | - | >100 µM
CCC(C)[C@@H](C(=O)N[C@@H](Cc1ccccc1)[C@H](O)CN(CC(C)C)S(=O)(=O)c1ccc(/C=N/O)cc1)N1CC(=O)N(Cc2ccncc2)C1=O | - | - | 50% human serum | 0.013 µM
O=C(OC[C@H]1O[C@@H](O)[C@@H]2OC(=O)c3cc(O)c(O)c(O)c3-c3c(cc(O)c(O)c3O)C(=O)O[C@H]2[C@@H]1OC(=O)c1cc(O)c(O)c(O)c1Oc1cc2c(c(O)c1O)-c1c(cc(O)c(O)c1O)C(=O)O[C@@H]1[C@@H](OC2=O)[C@H](OC(=O)c2cc(O)c(O)c(O)c2)O[C@@H]2COC(=O)c3cc(O)c(O)c(O)c3-c3c(cc(O)c(O)c3O)C(=O)O[C@@H]12)c1cc(O)c(OC(=O)c2cc(O)c(O)c(O)c2)c(O)c1 | IIIB | - | - | 2.4 µg/mL
COc1ccccc1Nc1nc(-c2ccc(S(=O)(=O)N(CC(C)C)C[C@@H](O)[C@H](Cc3ccccc3)NC(=O)COc3c(C)cc(Br)cc3C)cc2)cs1 | LAI | - | - | 100 µM
CCc1c(Cc2cccc(Cc3nc(SC(C)C)[nH]c(=O)c3CC)c2)nc(SC(C)C)[nH]c1=O | - | - | - | 14.5 µM
CC(=O)Nc1ncc(-c2ccc(S(=O)(=O)N(CC(C)C)C[C@@H](O)[C@H](Cc3ccccc3)NC(=O)O[C@H]3CO[C@H]4OCC[C@H]43)cc2)[nH]1 | - | PR-L010F M046I M071V I084V | - | 0.144 µM
O=C(OC[C@H]1O[C@@H](OC(=O)c2cc(O)c(O)c(O)c2)[C@H](OC(=O)c2cc(O)c(O)c(O)c2)[C@@H](O)[C@@H]1O)c1cc(O)c(O)c(O)c1 | IIIB | - | - | >50 µg/mL
Cc1cccc(Nn2c(-c3ccccc3)c(C(C)C)[nH]c2=S)c1 | IIIB | - | - | >42.63 µM
O=C(/C=C/c1ccc(O)c(O)c1)OC(Cc1ccc(O)c(O)c1)C(=O)O | IIIB | - | - | >50 µg/mL
CCOC(=O)C(CC)C(=O)Cc1cccc(Cc2[nH]c(=O)c(CC)c(O)c2CC)c1 | NNRTI-resistant | RT-Y181C | - | >100 µM
O=CC1OC(=O)c2cc(O)c(O)c(O)c2Oc2cc3c(c(O)c2O)-c2c(cc(Oc4c(C(=O)O)cc(O)c(O)c4O)c(O)c2O)C(=O)OCC(O)C(OC3=O)C(OC(=O)c2cc(O)c(O)c(O)c2)C(C=O)OC(=O)c2cc(O)c(O)c(O)c2Oc2cc3c(c(O)c2O)-c2c(cc(O)c(O)c2O)C(=O)OC(C(O)COC3=O)C1OC(=O)c1cc(O)c(O)c(O)c1 | IIIB | - | - | >100 µg/mL
N#CC1=CC2C(c3ccccc3N2CCN2CCCC2)N(c2ccc([N+](=O)[O-])cc2)C1=O | LAI | - | - | <1 µM
CC(C)CN(C[C@@H](O)[C@H](Cc1ccccc1)NC(=O)O[C@H]1CO[C@H]2OCC[C@H]21)S(=O)(=O)c1ccc(-c2coc(-c3ccc(C#N)cc3)n2)cc1 | LAI | - | - | 0.008 µM

Repeating the first 4 entries:

smiles	strain	changes	setting	result
S=c1[nH]c(-c2ccccc2)c(-c2ccccc2)n1Nc1cccc(Cl)c1	SO561945 (RT K103N Y181C)	RT-K103N Y181C	-	>36.31 µM
CCC(C)[C@@H](C(=O)N[C@@H](Cc1ccccc1)[C@H](O)CN(CC(C)C)S(=O)(=O)c1ccc(/C=N/O)cc1)N1CC(=O)N(Cc2ccccn2)C1=O	-	-	-	0.003 µM
Cc1[nH]c(=S)n(Nc2ccccc2)c1C	NL4-3	-	-	>181 µM
Cc1ccc(CN2CCN([C@H](C(=O)N[C@@H](Cc3ccccc3)[C@H](O)CN(CC(C)C)S(=O)(=O)c3ccc(/C=N/O)cc3)C(C)(C)C)C2=O)cn1	A17 (LPV-resistant)	PR-L10F V32I M46I I47V Q68E I84V	-	0.002 µM